Results as given in PubChem BioAssay AID1117319 (Southern Research Institute, 2015).
Values joined by “and” are separate entries in the source; they are usually repeats but may differ in a detail not shown here. Identical values can stand only once. This is one part of the list. Results filed as inconclusive are left out. Active and inactive are the calls of the source.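 Rule for the calls: active = inhibition above a set limit at one or more doses, reproduced on every date tested; inconclusive = results disagree between test dates, or hit never tested in dose response; inactive = the rest.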

Chains of the proteins cited; added tags and fusions are not shown. Lines headed by an entry give the natural chain unless they say otherwise; changes in a name come on top.
UniProt P69720: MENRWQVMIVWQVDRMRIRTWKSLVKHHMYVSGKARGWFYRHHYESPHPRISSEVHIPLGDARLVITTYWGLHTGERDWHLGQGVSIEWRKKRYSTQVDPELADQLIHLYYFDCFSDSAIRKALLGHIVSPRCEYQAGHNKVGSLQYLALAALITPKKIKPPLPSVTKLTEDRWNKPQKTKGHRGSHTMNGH
UniProt P69721: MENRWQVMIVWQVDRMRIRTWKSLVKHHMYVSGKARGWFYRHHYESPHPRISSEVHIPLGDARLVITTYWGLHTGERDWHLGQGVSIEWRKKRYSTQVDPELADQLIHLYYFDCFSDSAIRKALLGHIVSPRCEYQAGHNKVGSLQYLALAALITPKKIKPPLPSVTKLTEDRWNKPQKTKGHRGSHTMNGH
UniProt P69722: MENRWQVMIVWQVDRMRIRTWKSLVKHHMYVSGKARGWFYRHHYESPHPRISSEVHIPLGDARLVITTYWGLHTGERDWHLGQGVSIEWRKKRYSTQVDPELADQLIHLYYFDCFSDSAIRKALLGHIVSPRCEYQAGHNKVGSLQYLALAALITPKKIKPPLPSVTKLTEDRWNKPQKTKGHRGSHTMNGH
UniProt P69723: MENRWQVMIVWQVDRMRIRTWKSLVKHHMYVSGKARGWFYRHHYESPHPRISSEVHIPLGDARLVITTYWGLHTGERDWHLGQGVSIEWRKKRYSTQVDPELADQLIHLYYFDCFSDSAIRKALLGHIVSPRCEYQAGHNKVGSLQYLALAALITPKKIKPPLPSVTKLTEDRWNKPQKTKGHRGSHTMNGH
UniProt Q9HC16: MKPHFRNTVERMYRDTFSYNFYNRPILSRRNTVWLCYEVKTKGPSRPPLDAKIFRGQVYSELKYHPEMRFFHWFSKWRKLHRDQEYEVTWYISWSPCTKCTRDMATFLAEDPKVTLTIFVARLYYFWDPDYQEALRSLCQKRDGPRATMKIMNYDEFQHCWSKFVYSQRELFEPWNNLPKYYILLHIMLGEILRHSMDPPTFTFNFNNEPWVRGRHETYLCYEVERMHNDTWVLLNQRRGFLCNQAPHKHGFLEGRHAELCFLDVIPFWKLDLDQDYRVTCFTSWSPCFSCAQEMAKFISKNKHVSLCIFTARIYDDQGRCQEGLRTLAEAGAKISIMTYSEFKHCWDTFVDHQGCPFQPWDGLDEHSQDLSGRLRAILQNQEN

What follows are molecules tested against Virion infectivity factor (Human immunodeficiency virus type 1 group M subtype B (isolate BH10)) + Virion infectivity factor (Human immunodeficiency virus type 1 group M subtype B (isolate BRU/LAI)) + Virion infectivity factor (Human immunodeficiency virus type 1 group M subtype B (isolate PCV12)) + Virion infectivity factor (Human immunodeficiency virus type 1 group M subtype B (isolate HXB2)) + DNA dC->dU-editing enzyme APOBEC-3G (Homo sapiens) (UniProt P69720+P69721+P69722+P69723+Q9HC16) (assay: HIV-1 Vif–A3G interaction blockers – biochemical, TR-FRET, GST-Vif 1-94, biotin-A3G peptide, dose response retest, primary screen (AID 1117319;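 note: Vif residues 1-94 fused to GST binding biotinylated APOBEC3G peptide 110-148; 0% = full assay without inhibitor and 100% = GST in place of GST-Vif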)). Conditions: TR-FRET GST-Vif / biotin-A3G peptide binding; active compounds read high.

Row | SMILES | inhibition
1 | CC(=O)N1C2C3N(C(C)=O)C1C1N(C(C)=O)C(C(N1C(C)=O)N3C(C)=O)N2C(C)=O | inactive: 4.03%
2 | O=[N+]([O-])c1cccc2n[nH]nc12 | inactive: -3.09%
3 | CCN(/C(=N/P(=O)(N1CCOCC1)N1CCOCC1)N1CCOCC1)c1ccc(OC)cc1 | inactive: -0.96%
4 | CC1CCN(C(=O)Oc2c(Cl)cc(Cl)c3cccnc23)CC1 | inactive: -9.82%
5 | CN(C)C(=O)OCCc1n(C)cc[n+]1C | inactive: -11.5%
6 | CC(C)c1nc(Nc2ccccc2)n(P(=O)(N(C)C)N(C)C)n1 | inactive: -5.37%
7 | O=P1(N(CCCl)CCCl)OCCCS1 (centres undefined) | inactive: -1.15%
8 | O=C(Nc1cc([As](=O)(O)O)ccc1O)c1ccccc1 | inactive: 14.5%
9 | O=[N+]([O-])c1ncn(CCn2ncnc2[N+](=O)[O-])n1 | inactive: 0.22%
10 | CC(C)(C)C(=O)NC(Sc1ccncn1)C(Cl)(Cl)Cl (centres undefined) | inactive: -10.8%
11 | O=C(O)CNc1ccc([As](=O)(O)O)cc1 | inactive: 4.93%
12 | COC(=O)C1(C)COP(=O)(Nc2ccccc2)OC1 (centres undefined) | inactive: -9.99%
13 | O=[N+]([O-])c1cccc(NC2=NCC(CBr)S2)c1 (centres undefined) | inactive: 67.5%
14 | CN(C)P(=O)(N(C)C)n1c(Nc2ccccc2)nnc1-c1ccccc1 | inactive: -0.18%
15 | CCCC1OP(N)(=O)OCC1CC (centres undefined) | inactive: -7.84%
16 | CC(=O)Nc1ccc([As](=O)(O)O)cc1 | inactive: -0.1%
17 | O=C(O)c1ccccc1[As](=O)(O)O | inactive: -6.03%
18 | Cc1ccc(NP(=O)(Oc2ccccc2F)Oc2ccccc2F)nc1 | inactive: 5.44%
19 | CCOP(=O)(Nc1ccccc1)OCC | inactive: 12.7% and inactive: 1.03%
20 | CCN(N=Nc1nonc1N)c1nonc1N | inactive: -5.26%
21 | Cc1ccc(N/C(=N/P(=O)(N2CCOCC2)N2CCOCC2)N2CCOCC2)cc1 | inactive: -5.21%
22 | NC(=O)c1cc([N+](=O)[O-])cc([N+](=O)[O-])c1N | inactive: -7.4%
23 | CN1CCCC(OC(=O)C(c2ccccc2)c2ccccc2)C1 (centres undefined) | inactive: -0.09%
24 | Clc1ccc(Cl)c(NC2=NCC(CBr)S2)c1 (centres undefined) | inactive: -8.33%
25 | Cc1ccc(OP(=O)(Nc2nccs2)Oc2ccc(C)cc2)cc1 | inactive: -11.5%
26 | O=C(NC(Sc1ccncn1)C(Cl)(Cl)Cl)c1ccccc1 (centres undefined) | inactive: -8.37%
27 | Cc1c2non([O-])c-2c(C)[n+](=O)[n+]1[O-] | inactive: 4.79%
28 | Oc1ccccc1CNc1ccccn1 | inactive: -3.64%
29 | CC(C)CC(=O)NC(Sc1ccc(Cl)cc1)C(Cl)(Cl)Cl (centres undefined) | inactive: -5.71%
